EP1345943B1, “INHIBITORS OF PAPILLOMA VIRUS” (BOEHRINGER INGELHEIM (CANADA) LTD., priority 2000, dated 2002)

By UniProt entry, the sequences of proteins in these tests, tags left out.
UniProt P04015, whole entry: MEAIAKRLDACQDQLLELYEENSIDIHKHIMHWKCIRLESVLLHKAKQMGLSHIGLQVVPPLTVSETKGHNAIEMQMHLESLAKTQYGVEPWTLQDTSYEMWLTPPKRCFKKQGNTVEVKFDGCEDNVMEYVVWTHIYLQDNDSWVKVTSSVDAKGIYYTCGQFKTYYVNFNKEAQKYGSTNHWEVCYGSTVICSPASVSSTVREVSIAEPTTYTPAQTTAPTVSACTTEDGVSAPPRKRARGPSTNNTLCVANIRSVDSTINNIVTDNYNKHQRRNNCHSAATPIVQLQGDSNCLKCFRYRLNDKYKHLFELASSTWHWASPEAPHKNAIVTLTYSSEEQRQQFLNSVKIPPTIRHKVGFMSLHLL

Biological target: E1-E2-DNA complex (Human papillomavirus 11, UniProt P04015)
Assay: E2-dependent E1 DNA binding assay (E1-E2 DNA assay)
Details: E1-E2 DNA assay of Example 11, HPV-11; tested form: Na salt
Description: This particular assay determines the ability of a test compound to inhibit the activity (IC50) of HPV-11 DNA replication. More specifically, in the assay described herein, the inhibitory activity of the test compound is evaluated based on its ability to interfere with the E1-E2-DNA origin of replication interaction, thereby inhibiting initiation of viral DNA replication.
This assay was modeled on a similar assay for SV40 T Antigen described by McKay (J. Mol. Biol., 1981,145:471). A 400bp radiolabeled DNA probe, containing the -HPV-11 origin of replication (Chiang et al.., 1992, Proc. Natl.-Acad. Sci. USA 89:5799) was produced by pcr, using plasmid pBluescript™ SK encoding the origin (nucleotides 7886-61 of the HPV-11 genome in unique BAMH1 site) as template and primers flanking the origin. Radiolabel was incorporated as [33p]dCTP. Binding assay buffer consisted of: 20 mM Tris pH 7.6, 100 mM NaCI, 1 mM DTT, 1 mM EDTA.
Other reagents used were protein A-SPA beads (type II, Amersham) and K72 rabbit polyclonal antiserum, raised against a peptide corresponding to the C-terminal 14 amino acids of HPV-11 E1. […] After an additional hour of incubation at room temperature, the reactions were centrifuged briefly to pellet the beads and the extent of complex formation was determined by scintillation counting on a Packard TopCount™. […]

Molecule `Cc1cccc(NC(=O)[C@H]2[C@@H](c3ccc(Cl)c(Cl)c3)OC3(C(=O)c4ccccc4C3=O)[C@H]2C(=O)O)c1C` (relative stereo) has an IC50 of 500 to 5000 nM.
